Measured data: PubChem BioAssay AID1224833 (University of Georgia, 2016)

Screen: 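Human genes whose knock-down alters rotavirus replication in monkey cells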 (primary screen)
Cell system: monkey MA104 kidney cells
Reagents: siRNA pool against human genes, 50 nM
Duration: 48 h knock-down before infection; read 24 h after infection
Challenge: infection with rotavirus strain RV3 two days after transfection; infectious dose for this stage not given
Read-out: 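Rotavirus antigen per well by fluorescent immunoassay, normalised to non-targeting control wells on each plate and given as a standard z-score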
Direction: z-score vs non-targeting control: higher = more rotavirus replication than with non-targeting control
Hit rule: In these data the active calls have z-score vs non-targeting control at about -1 or lower, or at about 1 or higher
Meaning of the calls: active = z-score beyond 1 either way; inactive = z-score within 1 of zero
In all, the deposit lists about 12,000 reagents; below is an unselected part. In the full data, about 5,600 (46%) were called active. 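Active calls cover z-scores past 1 in both directions, so they include lowered as well as raised rotavirus replication.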 A number with no mark means an inactive call.

SLC22A10 — z-score vs non-targeting control = -1.04 (active)
UPK2 (uroplakin 2) — z-score vs non-targeting control = 1.17 (active)
CNTNAP5 (contactin associated protein family member 5) — z-score vs non-targeting control = 0.0363
ATP2A3 — z-score vs non-targeting control = -1.89 (active)
GRAMD2B (GRAM domain containing 2B) — z-score vs non-targeting control = 1.22 (active)
FGD3 (FYVE, RhoGEF and PH domain containing 3) — z-score vs non-targeting control = -0.92
LSM10 (LSM10, U7 small nuclear RNA associated) — z-score vs non-targeting control = 0.18
KLC4 (kinesin light chain 4) — z-score vs non-targeting control = -1.01 (active)
TBC1D8B (TBC1 domain family member 8B) — z-score vs non-targeting control = -1.5 (active)
LPIN2 (lipin 2) — z-score vs non-targeting control = -0.667
OR51B4 (olfactory receptor family 51 subfamily B member 4) — z-score vs non-targeting control = -1.89 (active)
SPG7 (SPG7 matrix AAA peptidase subunit, paraplegin) — z-score vs non-targeting control = 1.09 (active)
AZU1 (azurocidin 1) — z-score vs non-targeting control = 2.04 (active)
MC5R (melanocortin 5 receptor) — z-score vs non-targeting control = -1.07 (active)
CHD2 (chromodomain helicase DNA binding protein 2) — z-score vs non-targeting control = -0.769
ZNF584 (zinc finger protein 584) — z-score vs non-targeting control = -2.2 (active)
RAB22A (RAB22A, member RAS oncogene family) — z-score vs non-targeting control = -2.37 (active)
VNN1 (vanin 1) — z-score vs non-targeting control = -0.937
RIBC2 (RIB43A domain with coiled-coils 2) — z-score vs non-targeting control = -2.55 (active)
NKX2-2 (NK2 homeobox 2) — z-score vs non-targeting control = -0.823
RABGGTB (Rab geranylgeranyltransferase subunit beta) — z-score vs non-targeting control = -0.846
TMEM150C (transmembrane protein 150C) — z-score vs non-targeting control = 2.37 (active)
DPT (dermatopontin) — z-score vs non-targeting control = 0.474
TAX1BP1 (Tax1 binding protein 1) — z-score vs non-targeting control = -2.35 (active)
TP53I11 (tumor protein p53 inducible protein 11) — z-score vs non-targeting control = -1.75 (active)
DYNC1I1 (dynein cytoplasmic 1 intermediate chain 1) — z-score vs non-targeting control = 3.21 (active)
IK (IK cytokine) — z-score vs non-targeting control = -1.72 (active)
NRG4 (neuregulin 4) — z-score vs non-targeting control = -0.209
TUBGCP3 (tubulin gamma complex component 3) — z-score vs non-targeting control = -0.332
TPD52L2 (TPD52 like 2) — z-score vs non-targeting control = 0.112
SASH1 (SAM and SH3 domain containing 1) — z-score vs non-targeting control = -0.186
SKI (SKI proto-oncogene) — z-score vs non-targeting control = -0.303

3 entries from above, sorted by “z-score vs non-targeting control”, highest first.
TMEM150C (transmembrane protein 150C) — z-score vs non-targeting control = 2.37 (active)
DPT (dermatopontin) — z-score vs non-targeting control = 0.474
TAX1BP1 (Tax1 binding protein 1) — z-score vs non-targeting control = -2.35 (active)
